Holding throughout (assay): SPR
The target in assay [1] is peptide P4.
The target in assay [2] is peptide P3, derived from IL17RA.
The target in assay [3] is peptide P1.
The target of assay [4] is peptide P2.
For assay [5], the target named is peptide P5.

B1: SARS-CoV-2 ORF8 ([…]) with N-terminal 8×His tag and maltose binding protein (MBP) tag (domain or fragment)
chain: not shown
modifications: N-glycosylation (N-acetyl-beta-d-glucosamine, NAG) at N78
One may read the Kd as the free concentration of one partner at which half of the binding sites on the other are occupied at equilibrium, for simple one-to-one binding. Higher therefore signals lower affinity. B1: the Kd in assay [1] is 1510 nM; in assay [2], 889 nM; in assay [3], 179 nM; in assay [4], 1250 nM; in assay [5] it was 1990 nM.

These data come from publication PMC10434001 (2023).
